Anti-infective test results gathered from many reports (values: NIAID ChemDB through PubChem).

Shared fields: tests in culture; organism: Aspergillus flavus; read-out: zone

Zone: diameter of growth inhibition.

SMILES | method | tested at | strain | result
Cc1nc2ccccc2n(CC(=O)NN2C(=O)CSC2c2ccc(C(F)(F)F)cc2)c1=O | - | 100 µg/mL | - | 24 mm
c1ccc2c(c1)Sc1cccnc1N2CCCCCCN1c2ccccc2Sc2cccnc21 | - | 100 µg/mL | MTCC 277 | 12 mm
Cc1ccc2c(c1)C1(C(=O)N2CCCCCCN2C(=O)C3(SCC(=O)N3c3c(C)n(C)n(-c4ccccc4)c3=O)c3cc(F)ccc32)c2c(C)nn(-c3ccccc3)c2Oc2c1c(C)nn2-c1ccccc1 | agar diffusion | 100 µg/mL | MTCC 277 | 15 mm
CCCCNCc1cc2ccccc2nc1Cl | agar diffusion | 200 µg/mL | MTCC 277 | 8.25 mm
Cc1ccc(C2c3ccc4ccccc4c3Oc3nc(-c4cc5ccccc5oc4=O)[nH]c(=O)c32)cc1 | agar diffusion / agar | 100 µg/mL | - | 8 mm
OC(Cn1cncn1)(Cn1cncn1)c1ccc(F)cc1F | - | 500 µg/mL | MTCC 1883 | 26 mm
O=C(NN1C(=O)CSC1C1C(c2ccccc2)=Nc2ccc(Cl)cc21)N1c2ccccc2C=Cc2ccccc21 | agar diffusion | 750 µg/mL | MTCC-1973 | 13 mm
Cc1ccc(C2=NNc3c4ccccc4c4c5cc(Cl)ccc5nc-4n3C2)cc1 | agar diffusion / visual reading | 25 µg/mL | MTCC-1973 | 10 mm
Clc1nc2ccccc2cc1CNC1CCCCC1 | agar diffusion | 200 µg/mL | MTCC 277 | 0 mm
Cc1c(N2C(=O)CSC23C(=O)N(CCCCCCBr)c2ccccc23)c(=O)n(-c2ccccc2)n1C | agar diffusion | 100 µg/mL | MTCC 277 | 0 mm
O=C(O)c1ccccc1C(=O)NNc1nc2[nH]c3ccc(Cl)cc3c2c2ccccc12 | agar diffusion / visual reading | 6.25 µg/mL | MTCC-1973 | 7 mm
COc1ccc(-c2nn(-c3ccccc3)cc2C2CC(c3ccc(Cl)cc3Cl)=NN2c2ccccc2)cc1 | - | 1000 µg/mL | - | 0 mm
Cc1nn(-c2ccccc2)c2c1C1(C(=O)N(CCCCCCN3C(=O)C4(SCC(=O)N4c4c(C)n(C)n(-c5ccccc5)c4=O)c4ccccc43)c3ccc(F)cc31)c1c(C)nn(-c3ccccc3)c1O2 | agar diffusion | 100 µg/mL | MTCC 277 | 15 mm
Oc1cc2ccccc2cc1/C=N/NC(=S)N/N=C/c1cc2ccccc2cc1O | agar diffusion / agar | 2 mg/mL | - | 0 mm
Cn1c(=O)c(-c2[nH][nH]c(=O)c2C=Nc2ccc(N)cc2)c(O)c2ccccc21 | agar diffusion | 1 mg/mL | ATCC 28542 | 15 mm
O=C(NN=CC1C(c2ccccc2)=Nc2ccccc21)N1c2ccccc2C=Cc2ccccc21 | agar diffusion | 500 µg/mL | MTCC-1973 | 9 mm
Cc1ccc2nc3n4c(c5ccccc5c-3c2c1)NN=C(c1ccccc1)C4 | agar diffusion / visual reading | 12.5 µg/mL | MTCC-1973 | 11 mm
Brc1ccc(-c2nn(-c3ccccc3)cc2C2CC(c3ccc(-c4ccccc4)cc3)=NN2c2ccccc2)cc1 | - | 1000 µg/mL | - | 6 mm
COc1c(N2CC3CCCNC3C2)c(F)cc2c(=O)c(C(=O)[O-])cn(C3CC3)c12.[Cl][Co+].c1c[nH]cn1 | agar diffusion | 100 µM | - | 0 mm
CN(C)c1ccc(C2SCC(=O)N2NC(=O)CNC(=O)c2ccncc2)cc1 | agar diffusion | 100 µg/mL | - | 13.5 mm
COc1cc(C2c3ccc4ccccc4c3Oc3nc(-c4cc5ccccc5oc4=O)[nH]c(=O)c32)ccc1O | agar diffusion / agar | 100 µg/mL | - | 7 mm
Cc1ccc2c(c1)C(C1SCC(=O)N1NC(=O)N1c3ccccc3C=Cc3ccccc31)C(c1ccccc1)=N2 | agar diffusion | 1000 µg/mL | MTCC-1973 | 6 mm
Brc1ccc2c(c1)Sc1cccnc1N2C/C=C/CN1c2ccc(Br)cc2Sc2cccnc21 | - | 100 µg/mL | MTCC 277 | 11 mm
C[C@H]1[C@H](O)[C@@H](C)/C=C/C=C/C=C/C=C/C=C/C=C/C=C/[C@H](O[C@@H]2O[C@H](C)[C@@H](O)[C@H](N)[C@@H]2O)C[C@@H]2O[C@](O)(C[C@@H](O)C[C@@H](O)CC[C@H](O)[C@@H](O)C[C@@H](O)CC(=O)O[C@H]1C)C[C@H](O)[C@H]2C(=O)O | agar diffusion | 100 µM | - | 21 mm
Cc1nc2ccccc2n(CC(=O)NN2C(=O)CSC2c2ccccc2Cl)c1=O | - | 100 µg/mL | - | 14 mm
O=c1[nH]c(-c2cc3ccccc3oc2=O)nc2c1C(c1cccc([N+](=O)[O-])c1)c1ccc3ccccc3c1O2 | agar diffusion / agar | 150 µg/mL | - | 12 mm
CN(C)c1ccc(/C=C2\SC(c3ccc(N(C)C)cc3)N(NC(=O)CNC(=O)c3ccncc3)C2=O)cc1 | agar diffusion | 50 µg/mL | - | 8.3 mm
COc1ccc(C2SCC(=O)N2NC(=O)Cn2c(=O)c(C)nc3ccccc32)cc1 | - | 100 µg/mL | - | 15 mm
Cc1ccc(/C=C2\SC(c3ccc(C)cc3)N(NC(=O)CNC(=O)c3ccncc3)C2=O)cc1 | agar diffusion | 50 µg/mL | - | 7.5 mm
Cn1cc(CCC(=O)NCc2cn(C)c3ccc(Cl)cc23)c2cc(Cl)ccc21 | - | 25 µg/mL | NCIM 524 | <10 mm
Clc1ccc(COC(Cn2ccnc2)c2ccc(Cl)cc2Cl)c(Cl)c1 | - | 100 µg/mL | MTCC 277 | 17 mm
O=c1[nH]c(-c2cc3ccccc3oc2=O)nc2c1C(c1ccccc1Cl)c1ccc3ccccc3c1O2 | agar diffusion / agar | 150 µg/mL | - | 16 mm
COc1ccc(-c2nn(-c3ccccc3)cc2C2CC(c3ccc(-c4ccccc4)cc3)=NN2c2ccccc2)cc1 | - | 1000 µg/mL | - | 0 mm
Brc1ccc2c(c1)Sc1cccnc1N2CCCCCCN1c2ccc(Br)cc2Sc2cccnc21 | - | 100 µg/mL | MTCC 277 | 12 mm
Cn1c(=O)c(-c2[nH][nH]c(=O)c2C=Nc2cccnc2)c(O)c2ccccc21 | agar diffusion | 1 mg/mL | ATCC 28542 | 16 mm
Cn1cc(CCC(=O)NCCCc2c[nH]c3ccc(Cl)cc23)c2cc(Cl)ccc21 | - | 25 µg/mL | NCIM 524 | <10 mm
Cc1nc2ccccc2n(CC(=O)NN2C(=O)CSC2c2ccc(Cl)cc2)c1=O | - | 100 µg/mL | - | 23 mm
O=C(CNC(=O)c1ccncc1)NN1C(=O)/C(=C/c2ccc(Cl)cc2)SC1c1ccc(Cl)cc1 | agar diffusion | 100 µg/mL | - | 20.5 mm
Cc1c(N2C(=O)CSC23C(=O)N(CCCCCCBr)c2ccc(F)cc23)c(=O)n(-c2ccccc2)n1C | agar diffusion | 100 µg/mL | MTCC 277 | 14 mm
COc1ccc(C2c3ccc4ccccc4c3Oc3nc(-c4cc5ccccc5oc4=O)[nH]c(=O)c32)cc1OC | agar diffusion / agar | 150 µg/mL | - | 21 mm
O=C(CNC(=O)c1ccncc1)NN1C(=O)CSC1c1cccc([N+](=O)[O-])c1 | agar diffusion | 50 µg/mL | - | 24.8 mm
Cc1ccc2c(c1)C1(SCC(=O)N1c1c(C)n(C)n(-c3ccccc3)c1=O)C(=O)N2CCCCCCN1C(=O)C2(c3cc(F)ccc31)c1c(C)nn(-c3ccccc3)c1Oc1c2c(C)nn1-c1ccccc1 | agar diffusion | 100 µg/mL | MTCC 277 | 12 mm
Cc1ccc(O)c(O)c1O | - | 50 µg/mL | - | 10 mm
Clc1ccc(NCc2cc3ccccc3nc2Cl)cc1Cl | agar diffusion | 200 µg/mL | MTCC 277 | 18.73 mm
O=C(CNC(=O)c1ccncc1)NN1C(=O)/C(=C/c2cccc([N+](=O)[O-])c2)SC1c1cccc([N+](=O)[O-])c1 | agar diffusion | 100 µg/mL | - | 25 mm
C[C@H]1[C@H](O)[C@@H](C)/C=C/C=C/C=C/C=C/C=C/C=C/C=C/[C@H](O[C@@H]2O[C@H](C)[C@@H](O)[C@H](N)[C@@H]2O)C[C@@H]2O[C@](O)(C[C@@H](O)C[C@@H](O)CC[C@H](O)[C@@H](O)C[C@@H](O)CC(=O)O[C@H]1C)C[C@H](O)[C@H]2C(=O)O | agar diffusion | 1 mg/mL | ATCC 28542 | 18 mm
Clc1ccc(C2=NN(c3ccccc3)C(c3cn(-c4ccccc4)nc3-c3ccccc3)C2)c(Cl)c1 | - | 500 µg/mL | - | 0 mm
O=C(CCc1c[nH]c2ccc(Cl)cc12)NCCCc1c[nH]c2ccc(OC(F)(F)F)cc12 | - | 25 µg/mL | NCIM 524 | <10 mm
CN(Cc1cc2ccccc2nc1Cl)c1ccccc1 | agar diffusion | 200 µg/mL | MTCC 277 | 14.16 mm
COc1ccc2nc3n4c(c5ccccc5c-3c2c1)NN=C(c1ccccc1)C4 | agar diffusion / visual reading | 25 µg/mL | MTCC-1973 | 7 mm
Cc1nn(-c2ccccc2)c2c1C1(C(=O)N(CCCCCCN3C(=O)C4(SCC(=O)N4c4c(C)n(C)n(-c5ccccc5)c4=O)c4cc(F)ccc43)c3ccc(F)cc31)c1c(C)nn(-c3ccccc3)c1O2 | agar diffusion | 100 µg/mL | MTCC 277 | 16 mm
COc1cccc(/C=c2\c(=O)[nH][nH]\c2=C2/C(=O)c3ccccc3N(C)C2=O)c1 | agar diffusion | 1 mg/mL | ATCC 28542 | 7 mm
Cc1c(CNC(=O)CCc2cn(C)c3ccc(Cl)cc23)c2cc(OC(F)(F)F)ccc2n1C | - | 25 µg/mL | NCIM 524 | <10 mm
Cc1nc2ccccc2n(CC(=O)NN2C(=O)CSC2c2ccc(O)cc2)c1=O | - | 50 µg/mL | - | 12 mm
Clc1ccc2c(c1)Sc1cccnc1N2CCCCN1c2ccc(Cl)cc2Sc2cccnc21 | - | 100 µg/mL | MTCC 277 | 12 mm
Cn1c(=O)c(-c2[nH][nH]c(=O)c2/C=N/c2cscn2)c(O)c2ccccc21 | agar diffusion | 1 mg/mL | ATCC 28542 | 15 mm
CN(C)C=O | - | 50 µg/mL | - | 6 mm

Repeating the final 4 entries:

SMILES,method,tested at,strain,result
Cc1nc2ccccc2n(CC(=O)NN2C(=O)CSC2c2ccc(O)cc2)c1=O,-,50 µg/mL,-,12 mm
Clc1ccc2c(c1)Sc1cccnc1N2CCCCN1c2ccc(Cl)cc2Sc2cccnc21,-,100 µg/mL,MTCC 277,12 mm
Cn1c(=O)c(-c2[nH][nH]c(=O)c2/C=N/c2cscn2)c(O)c2ccccc21,agar diffusion,1 mg/mL,ATCC 28542,15 mm
CN(C)C=O,-,50 µg/mL,-,6 mm

Conditions beyond the fields shown may differ between rows. An empty or dashed field is not shown.